Data as given in PubChem BioAssay AID624099 (ICCB-Longwood, 2012)

- Aim: 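Human genes that papillomavirus E2 requires to repress the HPV18 LCR promoter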 (primary screen)
- System: human C33A cervical carcinoma cells (HPV-negative) stably expressing BPV1 E2 and an HPV18 LCR luciferase reporter
- Reagent: siRNA pool against human genes, 40 nM
- Timing: 72 h
- Detection: 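Per-well luciferase luminescence, z-scored on each plate against the plate mean and SD with control wells left out, then averaged across three replicate plates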
- Scale: mean z-score and z-score: higher = stronger reporter signal, weaker E2 silencing
- Active means: 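Mean z ≥ 2 together with z ≥ 2 in two or more of the three replicates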
The whole screen tested about 21,000 reagents; this is an unselected part. In the full data, 497 (2.4%) got an active call. 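Higher z means weaker E2 silencing; only reporter increases were scored, and knock-downs that hurt cell survival may mask genuine repressor factors.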 Entries without a mark were called inactive.

gene symbol | PubChem SID | mean z-score | z-score, replicate A | z-score, replicate B | z-score, replicate C
CLIP2 | SID134317733 | 0.26 | 0.29 | 0.23 | 0.26
KIF5C | SID134323574 | 1.27 | 1.11 | 1.31 | 1.38
NUDT2 | SID134313577 | -0.35 | -0.53 | -0.34 | -0.19
AP2B1 | SID134309972 | 1.05 | 0.86 | 1.41 | 0.89
ATR | SID56478564 | 1.01 | 0.78 | 1.11 | 1.13
CCDC77 | SID134318964 | 0.33 | 0.4 | 0.35 | 0.26
EPB41L5 | SID134315220 | 0.64 | 0.85 | 0.71 | 0.37
PLEKHO2 | SID134319775 | 0.92 | 1.04 | 1.1 | 0.63
TCEA2 | SID134320235 | -1.24 | -1.43 | -1.36 | -0.93
SPATA17 | SID134320526 | 0.92 | 0.71 | 1.36 | 0.69
FIP1L1 | SID134318783 | 0.2 | 0.13 | -0.05 | 0.51
ZNF771 | SID134312115 | 1.47 | 1.77 | 1.23 | 1.4
NCKAP1 | SID134315135 | 1.63 | 1.94 | 1.48 | 1.47
CD164 | SID134320198 | 0.11 | -0.01 | 0.08 | 0.26
ATIC | SID134313172 | 0.74 | 0.62 | 0.81 | 0.79
MAFG | SID134313939 | -1.41 | -1.07 | -1.68 | -1.46
MAFG | SID134319043 | 0.03 | 0.1 | 0.22 | -0.23
ELOF1 | SID134318974 | -1.15 | -1.03 | -1.06 | -1.36
BDH1 | SID134313504 | 0.55 | 0.77 | 0.48 | 0.4
ANKS6 | SID134322329 | 1.08 | 0.93 | 1.46 | 0.84
GP9 | SID134316804 | -0.77 | -0.31 | -1.14 | -0.87
LINC01551 | SID134328478 | 1.8 | 1.55 | 1.86 | 1.98
MED12 | SID134313924 | 1.61 | 1.87 | 1.45 | 1.51

Looked up above:
Under “z-score, replicate A”, NCKAP1 [SID134315135] is entered as 1.94
FIP1L1 [SID134318783], z-score, replicate C: 0.51
